{
  "source": "paper PMC8720485",
  "target": "SARS-CoV-2 receptor binding domain (RBD), wild type, monomeric (SARS-CoV-2) (UniProt P0DTC2)",
  "assay": "BLI",
  "data": [
    {"substance": "B38", "values": [
      {"measurement": "Kd", "result": 2100, "unit": "nM"}
    ]}
  ]
}
